Reference: patent US6355610B2 (priority 1998, dated 2002)

Sequences of proteins named here, by UniProt entry; tags and fusion partners are left off. Residues count along the entry.
UniProt P04273, 23-231 limits assumed: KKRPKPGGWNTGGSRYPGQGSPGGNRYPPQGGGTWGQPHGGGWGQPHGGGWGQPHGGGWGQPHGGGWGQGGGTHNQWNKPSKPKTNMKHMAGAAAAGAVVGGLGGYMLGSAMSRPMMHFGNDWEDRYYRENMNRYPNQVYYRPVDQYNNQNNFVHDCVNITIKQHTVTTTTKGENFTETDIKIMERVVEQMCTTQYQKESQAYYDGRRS

Target: 35S-HaPrPsen (Mesocricetus auratus, UniProt P04273)
Format: biochemical, hamster

`CSCC[C@H](NC(=O)[C@H](C)NC(=O)[C@H](CO)NC(=O)CNC(=O)[C@H](CC(C)C)NC(=O)[C@H](CCSC)NC(=O)[C@H](Cc1ccc(O)cc1)NC(=O)CNC(=O)CNC(=O)[C@H](CC(C)C)NC(=O)CNC(=O)CNC(=O)[C@@H](NC(=O)[C@@H](NC(=O)[C@H](C)NC(=O)CNC(=O)[C@H](C)NC(=O)[C@H](C)NC(=O)[C@H](C)NC(=O)[C@H](C)NC(=O)CNC(=O)[C@H](C)N)C(C)C)C(C)C)C(=O)N[C@@H](CO)C(=O)N[C@@H](CCCNC(=N)N)C(=O)N1CCC[C@H]1C(=O)N[C@@H](CCSC)C(=O)N[C@@H](CCSC)C(=O)N[C@@H](Cc1c[nH]cn1)C(=O)N[C@@H](Cc1ccccc1)C(=O)O` [P113-141] was tested, and the “peptide induced aggregation of 35S-HaPrPsen” value was “caused aggregation and pelleting of 35S-HaPrPsen”.
